# From patent publication US20250188078A1, “SMALL MOLECULE INHIBITORS OF THE CRL4 UBIQUITIN LIGASE” (Cornell University, priority 2022, published 2025)
# System: CUL4A-Vpr-dependent UNG2 degradation in Hela DOX-inducible-Vpr cells
# Assay: DOX-induced Vpr-mediated CUL4-dependent UNG2 degradation (Western blot)
# Conditions: FIG. 6C
# Procedure: FIG. 6C. Inhibition of DOX-induced Vpr-mediated CUL4-dependent UNG2 degradation by small molecule CUL4 inhibitors. In brief, Hela DOX-inducible-Vpr cells were seeded in 6-well plates. After 24 hours incubation, medium was changed to growth medium with 75 ng/ml doxycycline (DOX) overnight. On the third day, DMSO or indicated concentrations of compounds in serum-free medium containing DOX were added. The cells were lysed in buffer containing 150 mM NaCl, 1% SDS, 10 mM Tris-HCl (pH 6.8), 1× complete protease inhibitor cocktail and 10 U Benzo nuclease. Equal amounts of proteins were resolved on 9% SDS-PAGE gel and UNG2 levels were detected using anti-UNG2 (2C12) antibody (Origene #TA503563). α-tubulin (Proteintech, #66031-1-Ig) was used as an internal control. Normalized UNG2/α-tubulin ratio is higher in the compound treated sample than DMSO treated sample. (−) means that no change happens between compound treated sample with control sample.
smiles,measurement,value
CN(c1ccc(-c2nc(C(=O)O)cc3c2[nH]c2ccccc23)cc1)S(=O)(=O)c1ccccc1,Inhibition of CUL4A-Vpr-dependent UNG2 degradation,robust inhibition
